Pooled drug test results. Numbers come from NIAID ChemDB, via PubChem.

Shared fields: tests in culture; species: Cryptococcus neoformans; endpoint: MIC

Lines come from different laboratories, so protocols vary.

COc1ccc2c(c1)C(=O)/C(=C/c1ccc3c(c1)OCO3)CO2 ; strain or isolate: Farwania ; result: 12.5 µg/mL
CC(C)(C)c1c(C(c2ccccc2)n2ccnc2)cnn1-c1ccccc1 ; result: 66 µM
C=CC[C@@H]1/C=C(/C)C[C@H](C)C[C@H](OC)[C@H]2O[C@@](O)(C(=O)C(=O)N3CCCC[C@H]3C(=O)O[C@H](/C(C)=C/[C@@H]3CC[C@@H](O)[C@H](OC)C3)[C@H](C)[C@@H](O)CC1=O)[C@H](C)C[C@@H]2OC ; strain or isolate: C21F2 ; result: 50 µg/mL
Nc1ccc(S(=O)(=O)Nc2ccnn2-c2ccccc2)cc1 ; strain or isolate: IFM 51976 ; result: 8 µg/mL
OCC1c2ccccc2SC1c1ccccc1 ; strain or isolate: 93/V ; result: 50 µg/mL
Cc1ccc(OCC(=O)Nc2cccc(C(=O)Nc3cc(C)on3)c2)cc1 ; strain or isolate: ATCC90112 ; result: >100 µg/mL
C[C@@H](n1ccn(-c2ccc(OCC(F)(F)C(F)F)cc2)c1=O)C(O)(Cn1cncn1)c1ccccc1F ; strain or isolate: TIMM1740 ; result: 0.06 µg/mL
Cc1ccc(/C=C2\CCc3ccccc3C2=O)cc1 ; strain or isolate: 25 ; result: 50 µg/mL
C[C@@H]([C@@](O)(Cn1cncn1)c1ccc(F)cc1F)S(C)(=O)=O ; strain or isolate: R715 (AZOLE-R) ; result: >1000 µM
Clc1ccc(CC(Cn2ccnc2)c2ccccc2Br)c(Cl)c1 ; result: <1 µg/mL
O=C1/C(=C/c2ccc3c(c2)OCO3)CSc2ccccc21 ; strain or isolate: 93/V ; result: 6 µg/mL
c1ccc(-c2c(C(c3ccccc3)n3ccnc3)cnn2-c2ccccc2)cc1 ; result: 22 µM
C[C@H](n1nnnc1CCN1CCN(c2ccc(Cl)cc2)CC1)[C@](O)(Cn1cncn1)c1ccc(F)cc1F ; strain or isolate: LA314 ; result: 4 µg/mL
C[C@@H](N1CCN(c2ccc(OC(F)(F)F)cc2)C1=O)C(O)(Cn1cncn1)c1ccc(F)cc1F ; strain or isolate: TIMM1855 ; result: 0.06 µg/mL
CCC(O)/C=C/C=C/C=C/C(=O)OC[C@H]1O[C@@H](O[C@H]2[C@H](OC(=O)/C=C/C=C/CC(O)/C(C)=C/C=C/CCC(C)CC)[C@@H](O)[C@@]3(OCc4cc(O)cc(O)c43)O[C@@H]2CO)[C@H](O)[C@@H](O)[C@H]1O ; strain or isolate: D49 ; result: >100 µg/mL
Cc1cc(NC(=O)c2ccccc2NC(=O)COc2ccc(Cl)cc2Cl)no1 ; strain or isolate: ATCC90112 ; result: >100 µg/mL
C[C@@H](n1cnc2cc(Cl)ccc2c1=O)[C@](O)(Cn1cncn1)c1ccc(F)cc1F ; strain or isolate: Isolate 114.96 ; result: 0.156 µg/mL
C[C@H](n1nnc(CCN2CCN(c3cccc(Cl)c3)CC2)n1)[C@](O)(Cn1cncn1)c1ccc(F)cc1F ; strain or isolate: LA314 ; result: >16 µg/mL
COC1CC2CCC(C)C(O)(O2)C(=O)C(=O)N2CCCCC2C(=O)OC(C(C)CC2CCC(O)C(OC)C2)CC(=O)C(C)/C=C(\C)C(O)[C@@](OC)(N(O)C(=O)OCC(C)C)C(=O)C(C)CC(C)/C=C/C=C/C=C/1C ; strain or isolate: TOR1-1 ; result: >100 µg/mL
COc1ccccc1N1CCN(CCc2nnn(C(C)C(O)(Cn3cncn3)c3ccc(F)cc3F)n2)CC1 ; strain or isolate: LA314 ; result: 8 µg/mL
N#CC1=C(N)OC2=C(CSc3ccccc32)C1c1ccc2c(c1)OCO2 ; strain or isolate: Farwania ; result: 12.5 µg/mL
N=C(N)c1ccc(OCCCC2CCN(CCCOc3ccc(C(=N)N)cc3)CC2)cc1 ; strain or isolate: ATCC 90113 ; result: 0.0313 µg/mL
Fc1ccc(CN(Cc2ccc(-c3ccccc3)cc2)n2ccnc2)cc1 ; result: 200 µM
Clc1ccc(CC(Cn2ccnc2)c2c(Cl)cccc2Cl)cc1 ; result: 100 µg/mL
COc1cc(NS(=O)(=O)c2ccc(N)cc2)ncn1 ; strain or isolate: IFM 49722 ; result: ≥256 µg/mL
COc1ccc(/C=C2\CSc3ccc(OC)cc3C2=O)cc1 ; strain or isolate: 93/V ; result: 25 µg/mL
CCCCCOc1ccc(-c2cc(-c3ccc(C(=O)N[C@H]4C[C@@H](O)[C@@H](O)NC(=O)[C@@H]5[C@@H](O)[C@@H](C)CN5C(=O)[C@H]([C@H](O)CC(N)=O)NC(=O)[C@H]([C@H](O)[C@@H](O)c5ccc(O)c(OS(=O)(=O)O)c5)NC(=O)[C@@H]5C[C@@H](O)CN5C(=O)[C@H]([C@@H](C)O)NC4=O)cc3)no2)cc1 ; strain or isolate: FMR 8415 ; result: 64 µg/mL
CN[C@@H]1[C@H](O[C@@H]2OC[C@@H](O)[C@H](O)[C@H]2O)[C@@H](O)[C@H](O[C@H]2c3cc(C)c(C(=O)NCC(=O)O)c(O)c3-c3c(cc4c(c3O)C(=O)c3cc(OC)cc(O)c3C4=O)[C@@H]2O)O[C@@H]1CO ; strain or isolate: IAM 4514 ; result: 0.8 µg/mL
C[C@H](n1nnnc1CCN1CCN(C(c2ccccc2)c2ccccc2)CC1)[C@](O)(Cn1cncn1)c1ccc(F)cc1F ; strain or isolate: LA314 ; result: >16 µg/mL
N#CC1=C(N)OC2=C(CSc3ccccc32)C1c1cccc2ccccc12 ; strain or isolate: Farwania ; result: 12.5 µg/mL
COc1cc(/C=C2\COc3ccccc3C2=O)ccc1O ; strain or isolate: Farwania ; result: 25 µg/mL
C[C@@H](n1ccn(-c2ccc(OC(F)(F)F)cc2)c1=O)C(O)(Cn1cncn1)c1ccc(F)cc1F ; strain or isolate: TIMM1855 ; result: 0.06 µg/mL
Fc1ccc(CN(Cc2ccc(-c3ccccc3)cc2)n2ccnc2)c(F)c1 ; result: 33 µM
OC(Cn1cncn1)(Cn1nnc(CCN2CCN(c3ccc(F)cc3)CC2)n1)c1ccc(F)cc1F ; strain or isolate: LA314 ; result: >16 µg/mL
C[C@@H](n1ccn(-c2ccc(OC(F)(F)C(F)F)cc2)c1=O)C(O)(Cn1cncn1)c1ccccc1F ; strain or isolate: TIMM1740 ; result: 0.06 µg/mL
COc1cccc(C2Sc3ccccc3C2CO)c1O ; strain or isolate: Isolate 25 ; result: 6 µg/mL
COc1ccc(/C=C2\CSc3ccc(Cl)cc3C2=O)cc1 ; strain or isolate: 93/V ; result: 12.5 µg/mL
OCC1c2ccccc2SC1c1ccc(O)cc1O ; strain or isolate: Isolate 25 ; result: 6 µg/mL
c1ccc(CN(Cc2ccc(-c3ccccc3)cc2)n2ccnc2)cc1 ; result: 200 µM
COc1cc(O)c2c(c1)C(=O)c1c(cc3c(c1O)-c1c(cc(C)c(C(=O)NC(CO)C(=O)O)c1O)[C@H](OC1OC(C)C(N(C)C)C(OC4OCC(O)C(O)C4O)C1O)[C@H]3O)C2=O ; strain or isolate: CS-01 ; result: 1.6 µg/mL
Cc1cc(NC(=O)c2ccccc2NC(=O)COc2cccc(Cl)c2Cl)no1 ; strain or isolate: ATCC90112 ; result: >100 µg/mL
CC[C@@H]([C@H](C)O)n1ncn(-c2ccc(N3CCN(c4ccc(OC[C@@H]5CO[C@@](Cn6cncn6)(c6ccc(F)cc6F)C5)cc4)CC3)cc2)c1=O ; strain or isolate: H99 ; result: 0.063 µg/mL
O=C1/C(=C/c2ccc(Cl)cc2)COc2ccccc21 ; strain or isolate: 25 ; result: 6 µg/mL
Clc1ccccc1CN(Cc1ccc(-c2ccccc2)cc1)n1ccnc1 ; result: 33 µM
OC(Cn1cncn1)(Cn1cncn1)c1ccc(F)cc1F ; strain or isolate: TIMM0354 ; result: 100 µg/mL
C[C@H](n1nnc(CCN2CCN(c3ccccc3Cl)CC2)n1)[C@](O)(Cn1cncn1)c1ccc(F)cc1F ; strain or isolate: LA314 ; result: 8 µg/mL
COc1ccc(-c2sc3ccccc3c2CO)c(O)c1 ; strain or isolate: 93/V ; result: 50 µg/mL
Clc1ccc(CC(Cn2ccnc2)c2ccccc2Cl)cc1 ; result: <1 µg/mL
NCCNC(=O)C1=Nc2ccc(NC(=O)C3=Nc4ccc(C(=O)Nc5ccc6[nH]c(C(=O)NCCN)cc6c5)cc4C3)cc2C1 ; strain or isolate: Serotype C ; result: 1 µg/mL
OCC1c2ccccc2SC1c1cc(Cl)ccc1O ; strain or isolate: Isolate 25 ; result: 6 µg/mL
COc1cc(NS(=O)(=O)c2ccc(N)cc2)nc(OC)n1 ; strain or isolate: IFM 40216 ; result: ≥256 µg/mL
Clc1ccccc1CC(Cn1ccnc1)c1ccccc1Cl ; result: <1 µg/mL
COc1ccc2c(c1)-c1nc(OC)c(C#N)c(-c3ccc4c(c3)OCO4)c1CS2 ; strain or isolate: Farwania ; result: 3 µg/mL
Cc1c(C(c2ccccc2)n2cncn2)cnn1-c1ccccc1 ; result: >200 µM
COc1ccc(NS(=O)(=O)c2ccc(N)cc2)nn1 ; strain or isolate: IFM 40215 ; result: 128 µg/mL
OC(Cn1cncn1)(Cn1nnc(CCN2CCN(c3ccccc3Cl)CC2)n1)c1ccc(F)cc1F ; strain or isolate: LA314 ; result: 4 µg/mL
CO[C@H]1[C@@H](O)[C@H](O)[C@H](OC[C@@]23C[C@@H]4[C@H](C)CC[C@H]4[C@@]4(C=O)C[C@@H]2C=C(C(C)C)[C@@]34C(=O)O)O[C@@H]1C ; strain or isolate: ATCC66031 ; result: >100 µg/mL
N#CC1=C(N)OC2=C(CSc3ccc(Cl)cc32)C1c1ccc2c(c1)OCO2 ; strain or isolate: Farwania ; result: 6 µg/mL
O=C1/C(=C/c2ccc(F)cc2)CCc2ccccc21 ; strain or isolate: 25 ; result: 25 µg/mL
Cc1cc(NC(=O)c2ccc(NC(=O)COc3ccc(Cl)cc3Cl)cc2)no1 ; strain or isolate: ATCC90112 ; result: >100 µg/mL
C[C@@H](n1ccn(-c2ccc(F)cc2)c1=O)C(O)(Cn1cncn1)c1ccc(F)cc1F ; strain or isolate: TIMM1855 ; result: 0.5 µg/mL
N#CC1=C(N)OC2=C(CSc3ccccc32)C1c1ccc(-c2ccccc2)cc1 ; strain or isolate: Farwania ; result: 50 µg/mL
C[C@@H](n1ncn(-c2ccc(OCC(F)(F)C(F)F)cc2)c1=O)[C@](O)(Cn1cncn1)c1ccc(F)cc1F ; strain or isolate: DUMC 119.95 ; result: ≤0.0313 µg/mL
COC1CC2CCC(C)C(O)(O2)C(O)C(O)N2CCCCC2C(=O)OC(C(C)CC2CCC(O)C(OC)C2)CC(=O)C(C)/C=C(\C)C(O)C(OC)C(=O)C(C)CC(C)/C=C/C=C/C=C/1C ; strain or isolate: WILD TYPE ; result: 3.12 µg/mL
O=C1/C(=C/c2ccc3c(c2)OCO3)CSc2ccc(Cl)cc21 ; strain or isolate: 93/V ; result: 12.5 µg/mL
COc1nc2c(c(-c3ccccc3)c1C#N)CSc1ccccc1-2 ; strain or isolate: Farwania ; result: 6 µg/mL
c1ccc(-c2c(C(c3ccccc3)n3cncn3)cnn2-c2ccccc2)cc1 ; result: >200 µM
COc1ccc(-c2c(C#N)c(OC)nc3c2CSc2ccccc2-3)cc1 ; strain or isolate: 93/V ; result: 25 µg/mL
C[C@@H](n1ncn(-c2ccc(OCC(F)(F)C(F)F)cc2)c1=O)[C@](O)(Cn1cncn1)c1ccc(F)cc1F ; strain or isolate: TIMM1740 ; result: 0.13 µg/mL
Cc1cc(NC(=O)c2ccccc2NC(=O)COc2ccccc2C)no1 ; strain or isolate: ATCC90112 ; result: >100 µg/mL

A second listing of 4 rows from above:

C[C@H](n1nnnc1CCN1CCN(c2ccc(Cl)cc2)CC1)[C@](O)(Cn1cncn1)c1ccc(F)cc1F ; strain or isolate: LA314 ; result: 4 µg/mL
C[C@@H](n1ccn(-c2ccc(OCC(F)(F)C(F)F)cc2)c1=O)C(O)(Cn1cncn1)c1ccccc1F ; strain or isolate: TIMM1740 ; result: 0.06 µg/mL
Fc1ccc(CN(Cc2ccc(-c3ccccc3)cc2)n2ccnc2)c(F)c1 ; result: 33 µM
Nc1ccc(S(=O)(=O)Nc2ccnn2-c2ccccc2)cc1 ; strain or isolate: IFM 51976 ; result: 8 µg/mL